Results of unrelated studies side by side (data: NIAID ChemDB).

Common to all: cytotoxicity tests; cells: MT-2; measure: CC50

Blank or dashed fields: not listed here.

smiles | method | result
C=CCN1C(=O)N(CC=C)[C@H](Cc2ccccc2)[C@H](O)[C@@H](O)[C@H]1Cc1ccccc1 |  | 93.1 µM
O=C(c1ccccc1)N1CCC(CC2C(=O)N(c3ccccc3)c3ccccc32)CC1 |  | 35 µM
C(=C1/CNC/C(=C\c2ccco2)C1=Nc1ccccc1)/c1ccco1 | XTT | >121 µM
Fc1nc(N2CCNCC2)c(F)c(Sc2ccc(Cl)cc2)c1F | ATP / luminescence | 43.9 µM
CN1CC=C(CC2(CC3=CCN(C)CC3)c3cccc4cccc(c34)C2O)CC1 |  | 90 µM
CC[C@H](C)[C@H]1NC(=O)[C@@H](NC(=O)[C@@H](CC(C)C)NC)[C@@H](C)OC(=O)[C@H](Cc2ccc(OC)cc2)N(C)C(=O)[C@@H]2CCCN2C(=O)[C@H](CC(C)C)NC(=O)C(C)(C)NC(=O)C[C@@H]1O | MTT | >57.33 µM
CS(=O)(=O)N1CCC(CC2C(=O)N(c3ccccc3)c3ccccc32)CC1 |  | >130 µM
C(=C1/CNC/C(=C\c2ccco2)C1=NNc1ccccc1)/c1ccco1 | XTT | >116 µM
CCCC[C@@H]1NC(=O)[C@@H](NC(C)=O)CCCCOc2ccc(cc2)C[C@@H]([C@H](O)CN(CCC(C)C)S(=O)(=O)c2ccc(N)cc2)NC1=O | trypan blue | 7.371 µM
Cc1cn([C@H]2C[C@H](N=[N+]=[N-])[C@@H](COC(=O)C(=O)O)O2)c(=O)[nH]c1=O | sulforhodamine | 400 µM
O=C1CN=C(c2ccc[nH]2)c2cc(Cl)ccc2N1 |  | 1.6 µM
Cc1cn([C@H]2C[C@H](N=[N+]=[N-])[C@@H](COC(=O)c3ccncc3)O2)c(=O)[nH]c1=O | trypan blue | 150 µM
CCN1CC=C(CC2(CC3=CCN(CC)CC3)C(=O)N(c3ccccc3)c3ccccc32)CC1 |  | >95 µM
CC[C@H](C)[C@H]1NC(=O)[C@@H](NC(=O)[C@@H](C)N(C)C(=O)[C@@H]2CCCN2C(=O)C(C)=O)[C@@H](C)OC(=O)[C@H](Cc2ccc(OC)cc2)N(C)C(=O)[C@@H]2CCCN2C(=O)[C@H](CC(C)C)NC(=O)[C@@H](C)C(=O)[C@H](C(C)C)OC(=O)C[C@@H]1O | MTT | >46.81 µM
O=C1N(c2ccccc2)c2ccccc2C1(Cc1ncc[nH]1)Cc1ncc[nH]1 |  | 135 µM
CC(C)Nc1cccnc1N1CCN(C(=O)c2cc3cc(N=CN(C)C)ccc3[nH]2)CC1 |  | 28 µM
CN1CCC(CC2(CC3CCN(C)CC3)C(=O)N(c3ccccc3)c3ccccc32)CC1 |  | >99 µM
OC1/C(=C/c2ccco2)CNC/C1=C\c1ccco1 | XTT | >156 µM
Nc1ncnc2c1ncn2[C@H]1CC[C@@H](CO)O1 |  | >0.2 µM
OC(CNCC1CCCO1)Cn1c2ccc(Br)cc2c2cc(Br)ccc21 | ATP / luminescence | 10.8 µM
CC[C@H](C)[C@H]1NC(=O)[C@@H](NC(=O)[C@@H](C)N(C)C(=O)OCc2ccccc2)[C@@H](C)OC(=O)[C@H](Cc2ccc(OC)cc2)N(C)C(=O)[C@@H]2CCCN2C(=O)[C@H](CC(C)C)NC(=O)[C@@H](C)C(=O)[C@H](C(C)C)OC(=O)C[C@@H]1O | MTT | >48.3 µM
Cc1cn([C@H]2C[C@H](N=[N+]=[N-])[C@@H](COC(=O)C(=O)N[C@H](C(=O)O)C(C)C)O2)c(=O)[nH]c1=O | trypan blue | 80 µM
CC[C@H](C)[C@H]1NC(=O)[C@@H](NC(=O)[C@H](CC(C)C)N(C)C(=O)[C@@H]2CCCN2C(=O)C(C)=O)[C@@H](C)OC(=O)[C@H](Cc2ccc(OC)cc2)N(C)C(=O)[C@@H]2CCCN2C(=O)[C@H](CC(C)C)NC(=O)[C@@H](C)C(=O)[C@H](C(C)C)OC(=O)C[C@@H]1O | MTT | >45.03 µM
CN(CCO)CC(O)Cn1c2ccc(Cl)cc2c2cc(Cl)ccc21 | ATP / luminescence | 16.2 µM
CC(=O)Nc1ccc(S(=O)(=O)N(CCC(C)C)C[C@@H](O)[C@@H]2Cc3ccc(cc3)OCCCC[C@H](NC(=O)OC(C)(C)C)C(=O)N[C@@H](C(C)C)C(=O)N2)cc1 | trypan blue | 7.08 µM
CN(C)C=Nc1ccn([C@H]2C[C@H](F)[C@@H](CO)O2)c(=O)n1 |  | >200 µM
Nc1ccn([C@H]2CC[C@@H](CO)O2)c(=O)n1 |  | 176.3 µM
Cc1cn([C@H]2C=C[C@@H](OCP(=O)(O)O)O2)c(=O)[nH]c1=O | XTT | >500 µM
C[C@H](Cn1cnc2c(N)ncnc21)OCP(=O)(OCOC(=O)NC(C)(C)C)OCOC(=O)NC(C)(C)C |  | 10 µM
C[C@H](Cn1cnc2c(N)ncnc21)OCP(=O)(O)O |  | >100 µM
Cc1cn([C@H]2C=C[C@@H](CO)O2)c(=O)[nH]c1=O |  | 98 µM
CC(=O)c1c(O)c(C)c(O)c(Cc2c(O)c3c(c(C(=O)/C=C/c4ccccc4)c2O)OC(C)(C)C=C3)c1O | ATP / luminescence | 5.769 µM
Cc1cn([C@H]2C=C[C@@H](CO)O2)c(=O)[nH]c1=O | XTT | 286 µM
O=S(=O)(OC1/C(=C/c2ccco2)CNC/C1=C\c1ccco1)c1ccccc1 | XTT | >101 µM
CC(C)Cc1nc2ccccc2[nH]c1=O | trypan blue | 114 µM
Cc1cn([C@H]2C[C@H](N=[N+]=[N-])[C@@H](COC(=O)C(=O)NC(Cc3ccccc3)C(=O)O)O2)c(=O)[nH]c1=O | trypan blue | 150 µM

For reference, 4 entries again:

smiles,method,result
CC(=O)Nc1ccc(S(=O)(=O)N(CCC(C)C)C[C@@H](O)[C@@H]2Cc3ccc(cc3)OCCCC[C@H](NC(=O)OC(C)(C)C)C(=O)N[C@@H](C(C)C)C(=O)N2)cc1,trypan blue,7.08 µM
Cc1cn([C@H]2C=C[C@@H](OCP(=O)(O)O)O2)c(=O)[nH]c1=O,XTT,>500 µM
Nc1ncnc2c1ncn2[C@H]1CC[C@@H](CO)O1,,>0.2 µM
CN1CCC(CC2(CC3CCN(C)CC3)C(=O)N(c3ccccc3)c3ccccc32)CC1,,>99 µM

CCn: concentration that lowers growth or viability of the cells by n%. Neighbouring rows are from separate reports.